Results of unrelated studies side by side (data: NIAID ChemDB).

Common to all: growth or infection tests; agent: HIV-1; read-out: EC50

ECn: concentration that inhibits the pathogen or its effect by n%. Blank or dashed fields: not listed here. Neighbouring rows are from separate reports.

structure | conditions | strain | method | changes | cells | result
O=C(NCc1ccc(F)cc1)c1nc(N2CCCCS2(=O)=O)c2cccnc2c1O | - | BaL | syncytia | - | PBMC | 0.0143 µM
C[n+]1ccc(-c2c3nc(c(-c4ccccc4)c4ccc([nH]4)c(-c4cc[n+](C)cc4)c4nc(c(-c5ccccc5)c5ccc2[nH]5)C=C4)C=C3)cc1 | - | LAV | - | - | PBMC | 0.34 µM
Nc1ncnc2c1ncn2[C@H]1CC[C@@H](CO)O1 | - | IIIB Laboratory strain | cytopathic effect / trypan blue | - | MT-4 | 6.4 µM
O=c1[nH]c(=O)n([C@H]2CC[C@@](F)(CO)C2)cc1F | - | - | - | - | PBMC | >100 µM
O=c1c2ccccc2sn1/N=C/c1cccc([N+](=O)[O-])c1 | - | - | MTT | - | MT-4 | 36 µM
CC1(C)[C@@H](CO)CC[C@@]1(C)Cn1cc(Br)c(=O)[nH]c1=O | - | - | - | - | CEM + CEM/0 | >100 µg/mL
O=C(/C=C/c1ccc(O)c(O)c1)NCC(NC(=O)/C=C/c1ccc(O)c(O)c1)C(=O)O | - | LAI | cytopathic effect / neutral red | - | MT-2 | 4.5 µM
CNC(=O)c1cn2c(c1O)C(=O)N(Cc1ccc(F)c(F)c1)CC2 | - | - | p24 | - | MT-4 | <20 µM
CC[C@H](C)[C@H](NC(=O)C(C)N(C(=O)[C@H](Cc1ccccc1)NC(=O)[C@H](C)NC(=O)OC(C)(C)C)C(Cl)CCl)C(=O)N[C@H](C(=O)OC)C(C)C | - | LAI | RT activity | - | CEM | 100 µg/mL
CCc1c(Sc2ccccc2)n(COCc2ccccc2)c(=O)[nH]c1=O | - | - | antigen | - | CEM | <0.04 µM
CC(C)C1=C2[C@H]3CC[C@@H]4[C@@]5(C)CC[C@H](OC(=O)[C@H]6C[C@@H](C(=O)O)C6(C)C)C(C)(C)[C@@H]5CC[C@@]4(C)[C@]3(C)CC[C@@]2([C@@H](O)CNCc2ccc(N3CCC(N4CCOCC4)CC3)cc2)CC1=O | - | 92HT599 | p24 / ELISA | - | MT-2 | <1 µM
CC1(C)[C@@H](CO)CC[C@@]1(C)Cn1nnc2c(=O)[nH]cnc21 | - | - | - | - | CEM + CEM/0 | >100 µg/mL
COC(=O)[C@H](CCCCNC(=O)c1cc(O)c(O)c(O)c1)NC(=O)c1cc(O)c(O)c(O)c1 | - | LAI | cytopathic effect / neutral red | - | MT-2 | >62.5 µM
Nc1nc(N)c2ncn([C@H]3C=C[C@@H](CO)O3)c2n1 | - | IIIB Laboratory strain | cytopathic effect / trypan blue | - | MT-4 | >1 µM
COc1nc(N)c(N=C[C@@H](O)[C@H](O)[C@H](O)CO)c(=O)n1C | - | - | cytopathic effect / XTT | - | CEM | 140 µM
COc1cnc(-n2cnc(C)n2)c2[nH]cc(C(=O)C(=O)N3CCN(C(=O)c4ccccc4)CC3)c12 | - | NL4-3 | luciferase | M426K | U-87 | 0.0037 µM
C=C1CC[C@@H](OC(C)=O)[C@@]2(C)CC[C@]3(O)O[C@@]12C[C@@]3(C)CCC(=O)C(C)C | - | IIIB | MTT | - | MT-2 | 3.67 µM
CC(C)(C)NC(=O)[C@@H]1CN(Cc2cccnc2)CCN1C[C@@H](O)C[C@@H](Cc1ccccc1)C(=O)N[C@H]1c2ccccc2C[C@H]1OC(=O)[C@H](Cc1ccccc1)NC(=O)OC(C)(C)C | - | IIIB | cytopathic effect / MTT | - | MT-4 | 1.83 µM
NCCCCCCCCCCCCNC(=O)Cc1cn([C@H]2C=C[C@@H](CO)O2)c(=O)[nH]c1=O | - | IIIB | cytopathic effect / MTT | - | CEM + CEM-SS | >100 µM
Cc1ccc2sn(/N=C/c3ccccc3[N+](=O)[O-])c(=O)c2c1 | - | - | MTT | - | MT-4 | >100 µM
Nc1nc2c(ncn2[C@H]2CC[C@@](F)(CO)C2)c(=O)[nH]1 | - | - | - | - | PBMC | 32.3 µM
Cc1ccc2sn(/N=C/c3ccc(F)cc3)c(=O)c2c1 | - | - | MTT | K103N + Y181C | MT-4 | >15 µM
CCOC(=O)c1cn2c(c1O)C(=O)N(Cc1ccc(F)cc1)CC2 | - | - | p24 | - | MT-4 | <20 µM
Nc1nc(NC2CC2)c2ncn([C@H]3C=C[C@@H](CO)C3)c2n1 | - | HXB2D (RT K70E recombinant) | cytopathic effect / XTT | RT-K70E | MT-2 | 0.7 µM
Nc1ncnc2c1ncn2[C@@H]1CC[C@](F)(CO)C1 | - | - | - | - | PBMC | >100 µM
CC(C)C1=C2[C@H]3CC[C@@H]4[C@@]5(C)CC[C@H](OC(=O)[C@H]6C[C@@H](C(=O)O)C6(C)C)C(C)(C)[C@@H]5CC[C@@]4(C)[C@]3(C)CC[C@@]2(CCNC(=O)c2ccc(N3CCS(=O)(=O)CC3)nc2)CC1=O | - | 92HT599 | p24 / ELISA | - | MT-2 | <1 µM
CC1(C)[C@@H](CO)CC[C@@]1(C)Cn1cc(I)c(=O)[nH]c1=O | - | - | - | - | CEM + CEM/0 | >100 µg/mL
NCCCCCCCCCCNC(=O)Cc1cn([C@@H]2C=C[C@H](CO)O2)c(=O)[nH]c1=O | - | IIIB | cytopathic effect / MTT | - | CEM + CEM-SS | >100 µM
CC1=CC[C@@H]([C@@H](C)[C@H]2CC[C@@]3(C)[C@@H]4C[C@@H](O)[C@H]5C(C)(C)OC(=O)C=C[C@@]56C[C@@]46CC[C@]23C)OC1=O | - | IIIB | p24 | - | H9 | >8.6 µg/mL
COc1ccc(S(=O)(=O)N(CC(C)C)C[C@@H](O)[C@@H]2Cc3ccc(cc3)OCC/C=C/CCc3c(O)cccc3C(=O)N2)cc1 | - | LAI | MTT | - | MT-2 | 0.28 µM
O=c1c2ccccc2sn1/N=C/c1ccc([N+](=O)[O-])cc1[N+](=O)[O-] | - | - | MTT | Y181C | MT-4 | >100 µM
C=CCN(C(=O)[C@H](Cc1ccccc1)NC(=O)[C@H](C)NC(=O)OC(C)(C)C)C(C)C(=O)N[C@H](C(=O)N[C@H](C(=O)OC)C(C)C)[C@@H](C)CC | - | LAI | cytopathic effect / MTT | - | CEM | 80 µg/mL
c1ccc2c(-c3ccc(-c4ccc(-c5ccc(-c6cccc7ccccc67)s5)c5ccccc45)s3)cccc2c1 | - | IIIB | p24 / ELISA / antigen | - | C8166 | 11.19 µM
CC1(C)[C@@H](CO)CC[C@@]1(C)Cn1cnc2c(=O)[nH]cnc21 | - | - | - | - | CEM + CEM/0 | >100 µg/mL
COc1cccc(C(=O)[C@@H]2[C@@H](c3ccc(F)cc3)[C@](C#N)(C(N)=O)[C@H]3CCc4cc(C)ccc4N23)c1 | - | - | luciferase | - | 293T | 17.7 µM
O=C(NCCC(NC(=O)c1ccc(O)c(O)c1)C(=O)O)c1ccc(O)c(O)c1 | - | LAI | cytopathic effect / neutral red | - | MT-2 | >62.5 µM
CC(C)(C)NC(=O)[C@@H]1CN(Cc2cccnc2)CCN1C[C@@H](O)C[C@@H](Cc1ccccc1)C(=O)N[C@H]1c2ccccc2C[C@H]1OC(=O)CCCCOc1ccc(C[C@H](N)C(=O)O)cc1 | - | LAI | RT activity | - | CEM | 0.009 µM
CC(C)C1=C2[C@H]3CC[C@@H]4[C@@]5(C)CC[C@H](OC(=O)[C@H]6C[C@@H](C(=O)O)C6(C)C)C(C)(C)[C@@H]5CC[C@@]4(C)[C@]3(C)CC[C@@]2([C@@H](O)CNC(=O)c2ccc(Cl)c(Cl)c2)CC1=O | - | 92HT599 | p24 / ELISA | - | MT-2 | <1 µM
CC[C@H](C)[C@H](NC(=O)C(C)N(C(=O)[C@H](Cc1ccccc1)NC(=O)[C@H](C)NC(=O)OC(C)(C)C)C(Br)CBr)C(=O)N[C@H](C(=O)OC)C(C)C | - | LAI | RT activity | - | CEM | 200 µg/mL
Cn1c([S-])nc2nc(-c3ccccc3)c(-c3ccccc3)nc2c1=O.Cn1c([S-])nc2nc(-c3ccccc3)c(-c3ccccc3)nc2c1=O.[O]=[V+2] | - | IIIB | cytopathic effect | - | MT-4 | >61.43 µg/mL
COC(=O)C(CCCCNC(=O)/C=C/c1cc(O)c(O)c(O)c1)NC(=O)/C=C/c1cc(O)c(O)c(O)c1 | - | LAI | cytopathic effect / neutral red | - | MT-2 | 35.9 µM
C=Cc1c(C)c2cc3[nH]c(cc4nc(cc5nc(cc1[nH]2)C(C)=C5CCC(=O)OC)C(CCC(=O)OC)=C4C)c(C)c3C=C | - | LAV | - | - | PBMC | 1.01 µM
CC(C)C1=C2[C@H]3CC[C@@H]4[C@@]5(C)CC[C@H](OC(=O)[C@H]6C[C@@H](C(=O)O)C6(C)C)C(C)(C)[C@@H]5CC[C@@]4(C)[C@]3(C)CC[C@@]2(CCNCCN2CCS(=O)(=O)CC2)CC1=O | - | 92HT599 | p24 / ELISA | - | MT-2 | <1 µM
Cc1ccc2sn(/N=C/c3ccccc3O)c(=O)c2c1 | - | - | MTT | - | MT-4 | >30 µM
CCCCCCCC/C=C\CCCCCCCC(=O)OCC(COC(=O)CCCCCCC/C=C\CCCCCCCC)OC(=O)CCC(=O)O[C@@H](C[C@@H](Cc1ccccc1)C(=O)N[C@H]1c2ccccc2C[C@H]1OC(=O)CCC(=O)OC(COC(=O)CCCCCCC/C=C\CCCCCCCC)COC(=O)CCCCCCC/C=C\CCCCCCCC)CN1CCN(Cc2cccnc2)C[C@H]1C(=O)NC(C)(C)C | - | IIIB | cytopathic effect / MTT | - | MT-4 | >10 µM
CN1CCn2cc(C(=O)NCc3ccc(F)cc3)c(O)c2C1=O | - | - | p24 | - | MT-4 | <20 µM
NCCCCCCCCNC(=O)Cc1cn([C@H]2C=C[C@@H](CO)O2)c(=O)[nH]c1=O | - | IIIB | cytopathic effect / MTT | - | CEM + CEM-SS | >100 µM
C=CCN(CC(=O)N[C@H](C(=O)N[C@H](C(=O)OC)C(C)C)[C@@H](C)CC)C(=O)[C@H](Cc1ccccc1)NC(=O)[C@H](C)NC(=O)OC(C)(C)C | - | LAI | cytopathic effect / MTT | - | CEM | 8.15 µg/mL
Cc1ccc2sn(/N=C/c3cccc(Cl)c3)c(=O)c2c1 | - | - | MTT | K103N + Y181C | MT-4 | >59 µM
COc1cccc(C(=O)[C@@H]2[C@@H](c3ccc(O)c(Cl)c3)[C@](C#N)(C(N)=O)[C@H]3CCc4cc(C)ccc4N23)c1 | - | - | luciferase | - | 293T | 45 µM
CC(C)C1=C2[C@H]3CC[C@@H]4[C@@]5(C)CC[C@H](OC(=O)[C@H]6C[C@@H](C(=O)O)C6(C)C)C(C)(C)[C@@H]5CC[C@@]4(C)[C@]3(C)CC[C@@]2(CC(=O)NCC(C)(CO)NC(=O)c2ccc(Cl)cc2)CC1=O | - | 92HT599 | p24 / ELISA | - | MT-2 | <1 µM
CC(C)CN(C[C@@H](O)[C@H](Cc1cc(F)cc(F)c1)NC(=O)OC1C[C@H]2C[C@H]3C1CO[C@H]3O2)S(=O)(=O)c1ccc2nc(NC3CC3)sc2c1 | - | NL4-3 | ELISA | - | MT-4 | 0.000034 µM
COc1cccc(C(=O)C2C(c3ccc(Cl)cc3)C(C#N)(C(N)=O)C3CCc4cc(C)ccc4N23)c1 | - | - | luciferase | - | CEM | 10 µM
O=c1c2ccccc2sn1/N=C/c1ccc2c(c1)OCO2 | - | - | MTT | K103N + Y181C | MT-4 | >17 µM
CS(=O)(=O)CCc1cnc2c(c1)c(N)c(C(=O)NCc1ccc(F)cc1F)c(=O)n2O | pseudotyped | - | luciferase | Y143H | 293T | 0.0374 µM
CNC(=O)c1cn2c(c1O)C(=O)N(Cc1ccc(Cl)cc1)CC2 | - | - | p24 | - | MT-4 | <20 µM
CCCCCCCCCCCCCCCC(=O)OCC(COC(=O)CCCCCCCCCCCCCCC)OC(=O)CCC(=O)O[C@@H]1Cc2ccccc2[C@@H]1NC(=O)[C@H](Cc1ccccc1)C[C@H](O)CN1CCN(Cc2cccnc2)C[C@H]1C(=O)NC(C)(C)C | - | IIIB | cytopathic effect / MTT | - | MT-4 | 5.3 µM
COC(=O)C(CCCNC(=O)/C=C/c1cc(O)c(O)c(O)c1)NC(=O)/C=C/c1cc(O)c(O)c(O)c1 | - | LAI | cytopathic effect / neutral red | - | MT-2 | 10 µM
CCN1C[C@H](C)n2c(c(O)c3c(=O)n(Cc4ccc(F)c(Cl)c4)nc(C(=O)NC)c32)C1=O | - | IIIB | syncytia | - | C8166 | 0.0115 µM
CC(C)C[C@H](NC(=O)OC(C)(C)C)C(=O)O[C@H](CN1C[C@H]2CCCC[C@H]2C[C@H]1C(=O)NC(C)(C)C)[C@H](Cc1ccccc1)NC(=O)[C@H](CC(N)=O)NC(=O)c1ccc2ccccc2n1 | - | IIIB | cytopathic effect / MTT | - | MT-4 | 0.485 µM
O=C(NC(CNC(=O)c1ccc(O)c(O)c1O)C(=O)O)c1cc(O)c(O)c(O)c1 | - | LAI | cytopathic effect / neutral red | - | MT-2 | 3 µM
O=C(Cc1cccc(O)c1)c1nc2ccccc2[nH]1 | - | IIIB | cytopathic effect | - | MT-4 | 27 µM
CC(C)C1=C2[C@H]3CC[C@@H]4[C@@]5(C)CC[C@H](OC(=O)[C@H]6C[C@@H](C(=O)O)C6(C)C)C(C)(C)[C@@H]5CC[C@@]4(C)[C@]3(C)CC[C@@]2([C@@H](O)CNC(=O)C(C)(C)NC(=O)c2ccc(Cl)c(Cl)c2)CC1=O | - | 92HT599 | p24 / ELISA | - | MT-2 | <1 µM
COc1ccc(/C=N/n2sc3ccccc3c2=O)cc1 | - | - | MTT | Y181C | MT-4 | >19 µM

7 of the rows above, restated:

structure,conditions,strain,method,changes,cells,result
Cc1ccc2sn(/N=C/c3ccccc3O)c(=O)c2c1,-,-,MTT,-,MT-4,>30 µM
Cc1ccc2sn(/N=C/c3ccccc3[N+](=O)[O-])c(=O)c2c1,-,-,MTT,-,MT-4,>100 µM
COc1nc(N)c(N=C[C@@H](O)[C@H](O)[C@H](O)CO)c(=O)n1C,-,-,cytopathic effect / XTT,-,CEM,140 µM
O=c1c2ccccc2sn1/N=C/c1ccc([N+](=O)[O-])cc1[N+](=O)[O-],-,-,MTT,Y181C,MT-4,>100 µM
CC(C)(C)NC(=O)[C@@H]1CN(Cc2cccnc2)CCN1C[C@@H](O)C[C@@H](Cc1ccccc1)C(=O)N[C@H]1c2ccccc2C[C@H]1OC(=O)[C@H](Cc1ccccc1)NC(=O)OC(C)(C)C,-,IIIB,cytopathic effect / MTT,-,MT-4,1.83 µM
NCCCCCCCCCCCCNC(=O)Cc1cn([C@H]2C=C[C@@H](CO)O2)c(=O)[nH]c1=O,-,IIIB,cytopathic effect / MTT,-,CEM + CEM-SS,>100 µM
Nc1nc(N)c2ncn([C@H]3C=C[C@@H](CO)O3)c2n1,-,IIIB Laboratory strain,cytopathic effect / trypan blue,-,MT-4,>1 µM